Reference: the supplement of paper PMC9931576
Human monoclonal antibodies against the spike receptor-binding domain (heavy:light variable regions). IC50 against pseudoviruses bearing the spike of naturally observed variants; lower = stronger; >10 µg/ml means not reached at the top dose. No active / inactive call. The stated detection limit is 0.0005 µg/ml; values near or below 0.001 µg/ml lie at the floor of the assay.

B1: BD56-005 (protein)
chain 1: QVQLVQSGAEVRKPGASVKVSCKASGYIFTGYYIHWVRQAPGQGLEWMGWMNPNSGDTTYAQKFQGRVTMTRDTSINTANMELNRLRSDDTAVYYCFRGCGGDCYPDAEYFQHWGQGTLVTVSS
chain 2: DIQMTQSPSSLSASVGDRVTITCRASQSINRYLNWYQQKPGKAPKLLIYAASSLQSGVPSRFSGSGSGTDFTLTINTLQPEDFATYYCQQSHSAPPLTFGGGTKVEIK
B2: BD56-006 (protein)
chain 1: EVQLVESGGGLVRPGGSLRVSCAASEIIVSRNYMSWVRQAPGKGLEWVSLLYSGGSTFYADSVKGRFTISRDNSKNTLYLQMSSLTAEDTAVYYCARGGRGGPDAFDSWGQGTLVTVSS
chain 2: IQLTQSPSSLSASVGDRVTITCRASQGIGNYLAWYLQKPGKAPKLLIYAASTLQSGVPSRFSGSGSGTDFTLTISSLQPEDFATYYCQLLDSYPPSTFGQGTKLEIK
B3: BD56-013 (protein)
chain 1: QVQLVQSGTEVKKPGASVKVSCKASGYTFTTFGISWVRQAPGQGLEWMGWTSPNNDKTRYAQKLQGRVSMTTDTPASTAYLELRSLRSDDTAVYYCARDNRGGNDFLDYWGQGTLVTVSS
chain 2: DIQMTQSPSTLSASVGDRVTITCRASQSISPWLAWYQQKPGKAPKLLIYRASSLESGVPSRFSGSGSGTEFTLTISSLQPDDFATYHCHQYNTYPYTFGQGTKLDIK
B4: BD56-014 (protein)
chain 1: QVQLQESGPGLVKSSETLSLTCTVSGASISVYYWSWIRQPPGKGLEWIGYIYKSDKTNYNPSLKSRVTILEGPSRNQFSLKLNSVTAADTAVYYCARHGWTDTLTGYPYDAFDSWGQGTLVTVSS
chain 2: EIVMTQSPATLSASPGERVTLSCRASQSVSSDLAWYQQKPGQAPRLLIYDASSRATGFPARFSGSGSGTEFTLTVSSLQSEDFVVYYCQQYTEWPYTFGQGTKLEIK
B5: BD56-015 (protein)
chain 1: EVQLVESGGGLVQPGGSLRLSCAASEFIVSRNYMSWVRQAPGKGLEWVSVIYPGGSTFYADSVKGRFTISRDNSKNTLYLQMNSLRAEDTAVYFCARDFGDQYFDYWGPGTLLTVSS
chain 2: EIVLTQSPGTLSLSPGDRATLSCRASQSVSSYLAWYQQKPGQAPRLLIYGASSRATGIPDRFSGSGSGTDFTLTISRLEPEDFAVYYCQQYGTSPRTFGQGTKLEIK
B6: BD56-016 (protein)
chain 1: EVQLVESGGGLVQPGGSLRLSCVASGFTFSSYWMHWVRQAPGKGLVWVSRIHPDGTFTSYAESVKGRFSISRDNAKNTLYLQMNSLRAEDTALYYCARDYDILTNYYSADPDVFDIWGQGTMVTVSS
chain 2: DIVMTQSPDSLPVSLGERATINCKSSQSILYSSNNKNYLAWYQQKPGQPPKLLIYWASTRESGVPDRFSGSGSGTEFTLTISTLQAEDVAVYYCQQYYNPPYTFGQGTKLEIK
B7: BG7-20 (protein)
chain 1: QVQLVQSGAEVKKAGASVKVSCKASGYTFTSYDINWVRQASGQGLEWMGWMNPISGNTGYAQKFQGRVTMTRNTSITTAYMELSSLRSEDTAVYFCARGGRYCSSTTCYSGVGMDVWGQGTTVTVPS
chain 2: QSVLTQPPSVSGAPGQRVTISCTGSSSNIGAGYDVHWYHQLPGTAPKFLIYGNSNRPSGVPDRFSGSKSGTSASLAITRLQAEDEADYYCQSYDSSLSGWVFGGGTKLTVL
B8: BD56-021 (protein)
chain 1: EVQLVESGGGSVKPGTSLRVSCAASGFTFDDYAMNWVRQRPGKGLEWVASISWHSVSRDYADSVKGRFTISRDNAKNSLFLQMNSLRPEDTAFYYCAKSRGYETLTGGDYFDSWGQGTLVTVSS
chain 2: EIVLTQSPGSLSLSPGESATLSCRASQTVNNNFLAWYQQKPGQAPRLLIYGASSRATGIPDRFSGSGSGTDFTLTISRLEPGDFAVYYCQQYGNSPSITFGQGTRLDIK
B9: BD56-022 (protein)
chain 1: EVQLVESGGGLVQPGGSLRLSCVASGFTFSSYWMHWVRQAPGKGLVWVSRIHPDGTFTSYAESVKGRFSISRDNAKNTLYLQMNSLRAEDTALYYCARDYDILTNYYSADPDVFDIWGQGTMVTVSS
chain 2: DIVMTQSPDSLPVSLGERATINCKSSQSLLYSSNNKNYLAWYQQKPGQPPKLLIYWASTRESGVPDRFSGSGSGTEFTLTISSLQAEDVAVYHCQQYYDPPYTFGQGTKLEIK
B10: BD56-025 (protein)
chain 1: EMQLVESGGGLVQPGRSLRLSCAASGFTFDDYGMHWVRQAPGKGLKWVSGLSWNGGTIGYADSVKGRFIISRDNAKNSLYLQMNSLRAEDTALYYCTKDIGYYYDNSGYYVDYYVMDVWGQGTTVTVSS
chain 2: QSVLTQPPSVSAAPGQKVTISCSGSSSNIGNNYVSWYQQVPGTAPKLLIYDNNKRPSGIPDRFSGSKSGTSATLGITGLLTGDGADYYCGTWDSSLSVVVFGGGTKLTVL
B11: BD56-027 (protein)
chain 1: EVQLVESGGGLVKPGGSLRLSCAASGFTFNHAWMSWVRQAPGKGLEWVGRMKSIHDGGTADYAAPVKGRFTFSRDDSKKTLYMEMNSLTIEDTAVYYCTTDLDLRSEMGTFEHDAFDSWGQGTMVTVSS
chain 2: DIQMTQSPSSLSASVGDRVSITCRASQSVSSFLNWYQHRPGKAPKLLIYAASSLQSGVPSRFSGSGSGTDFTLTITSLRPEDFATYYCQQTYGAPSFGQGTKVDFK
B12: BD56-040 (protein)
chain 1: QVQLVESGGGVVQPGKSLRLSCAASGFTFTNHGMHWVRQAPGKGLEWVALIWNDGSNQQYADFVRGRFLISRDNSKNTLYLQMNSLRAEDTAVYYCARDGVRYYYGSGSPDYWGQGSLVTVSS
chain 2: DTVMTQTPLSLSVTPGQPASMSCKSSQSLLHTDGKTYLYWYLQKPGQSPQLLIYDLSTRFSGVPERFIGSGSGTDFTLKISRVEAEDVGVYYCMQSLYVPLTFGGGTKVQIK

Target: SARS-CoV-2 Omicron BA.1 spike pseudovirus
Test: pseudovirus neutralization IC50; higher = weaker neutralization
Procedure: (§1)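 Single-round VSV luciferase pseudovirus mixed with antibody dilutions for 1 h and put on Huh-7 cells for about a day; IC50 from the dose curve.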

Binder | pseudovirus neutralization IC50
B1 | 0.0738 µg/mL
B2 | 0.0145 µg/mL
B3 | > 10 µg/mL
B4 | 0.159 µg/mL
B5 | 0.0132 µg/mL
B6 | 0.00438 µg/mL
B7 | > 10 µg/mL
B8 | 0.00129 µg/mL
B9 | 0.00234 µg/mL
B10 | 0.113 µg/mL
B11 | 0.00296 µg/mL
B12 | 0.151 µg/mL

Target: SARS-CoV-2 Omicron BA.2 spike pseudovirus
Test: as above
Procedure: as §1

Binder | pseudovirus neutralization IC50
B1 | 0.047 µg/mL
B2 | 0.0153 µg/mL
B3 | > 10 µg/mL
B4 | 0.258 µg/mL
B5 | 0.0111 µg/mL
B6 | 0.00388 µg/mL
B7 | > 10 µg/mL
B8 | 0.0008 µg/mL
B9 | 0.00275 µg/mL
B10 | 0.166 µg/mL
B11 | 0.00314 µg/mL
B12 | 0.267 µg/mL

Target: SARS-CoV-2 Omicron BA.2.75 spike pseudovirus
Test: as above
Procedure: as §1

Binder | pseudovirus neutralization IC50
B1 | 0.00229 µg/mL
B2 | > 10 µg/mL
B3 | > 10 µg/mL
B4 | 0.227 µg/mL
B5 | 0.594 µg/mL
B6 | 0.00485 µg/mL
B7 | > 10 µg/mL
B8 | 0.00192 µg/mL
B9 | 0.00418 µg/mL
B10 | 0.118 µg/mL
B11 | 0.00483 µg/mL
B12 | 0.177 µg/mL

Target: SARS-CoV-2 Omicron BA.5 spike pseudovirus
Test: as above
Procedure: as §1

Binder | pseudovirus neutralization IC50
B1 | 0.173 µg/mL
B2 | 0.0165 µg/mL
B3 | > 10 µg/mL
B4 | > 10 µg/mL
B5 | 0.0121 µg/mL
B6 | 0.00277 µg/mL
B7 | > 10 µg/mL
B8 | 0.00122 µg/mL
B9 | 0.00208 µg/mL
B10 | 2.68 µg/mL
B11 | 0.00272 µg/mL
B12 | 0.237 µg/mL

Target: SARS-CoV-2 Omicron BQ.1.1 spike pseudovirus
Test: as above
Procedure: as §1

Binder | pseudovirus neutralization IC50
B1 | > 10 µg/mL
B2 | > 10 µg/mL
B3 | > 10 µg/mL
B4 | > 10 µg/mL
B5 | > 10 µg/mL
B6 | > 10 µg/mL
B7 | > 10 µg/mL
B8 | > 10 µg/mL
B9 | > 10 µg/mL
B10 | > 10 µg/mL
B11 | > 10 µg/mL
B12 | > 10 µg/mL

Target: SARS-CoV-2 Omicron XBB spike pseudovirus
Test: as above
Procedure: as §1

Binder | pseudovirus neutralization IC50
B1 | > 10 µg/mL
B2 | > 10 µg/mL
B3 | > 10 µg/mL
B4 | > 10 µg/mL
B5 | > 10 µg/mL
B6 | > 10 µg/mL
B7 | > 10 µg/mL
B8 | > 10 µg/mL
B9 | > 10 µg/mL
B10 | > 10 µg/mL
B11 | 4.52 µg/mL
B12 | > 10 µg/mL

Target: SARS-CoV-2 early D614G spike pseudovirus
Test: as above
Procedure: as §1

Binder | pseudovirus neutralization IC50
B1 | 0.0025 µg/mL
B2 | 0.00633 µg/mL
B3 | 1.52 µg/mL
B4 | 0.00434 µg/mL
B5 | 0.0235 µg/mL
B6 | 0.0014 µg/mL
B7 | 0.0025 µg/mL
B8 | 0.001 µg/mL
B9 | 0.00377 µg/mL
B10 | 0.0771 µg/mL
B11 | 0.001 µg/mL
B12 | 0.225 µg/mL
